Data as given in PubChem BioAssay AID624099 (ICCB-Longwood, 2012)
Aim: 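Human genes that papillomavirus E2 requires to repress the HPV18 LCR promoter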 (primary screen). Cell system: human C33A cervical carcinoma cells (HPV-negative) stably expressing BPV1 E2 and an HPV18 LCR luciferase reporter. Reagent: siRNA pool against human genes, 40 nM. Timing: 72 h. Read-out: 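Per-well luciferase luminescence, z-scored on each plate against the plate mean and SD with control wells left out, then averaged across three replicate plates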. Scale: mean z-score and z-score: higher = stronger reporter signal, weaker E2 silencing. Active means: 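Mean z ≥ 2 together with z ≥ 2 in two or more of the three replicates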.
Here is an unselected part of about 21,000 reagents. Over the whole deposit, 497 (2.4%) were called active. 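Higher z means weaker E2 silencing; only reporter increases were scored, and knock-downs that hurt cell survival may mask genuine repressor factors.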 The numbers tell different reagents against one gene apart.

NUP98 | mean z-score = -0.51; z-score, replicate A = -0.74; z-score, replicate B = -0.45; z-score, replicate C = -0.35; call = inactive
LRIT2 | mean z-score = -0.43; z-score, replicate A = -0.49; z-score, replicate B = -0.36; z-score, replicate C = -0.44; call = inactive
KASH5 | mean z-score = 0.27; z-score, replicate A = 0.05; z-score, replicate B = 0.23; z-score, replicate C = 0.52; call = inactive
ARMC7 | mean z-score = -0.85; z-score, replicate A = -0.99; z-score, replicate B = -0.71; z-score, replicate C = -0.86; call = inactive
SCP2D1 | mean z-score = -0.89; z-score, replicate A = -1.09; z-score, replicate B = -1.04; z-score, replicate C = -0.54; call = inactive

Individual results from the entries so far.
Under “call”, SCP2D1 is entered as inactive
Value of NUP98 in “mean z-score”: -0.51

The listing continues:
ATP7B | mean z-score = -0.79; z-score, replicate A = -0.76; z-score, replicate B = -0.67; z-score, replicate C = -0.95; call = inactive
CNOT10 | mean z-score = 1.43; z-score, replicate A = 1.52; z-score, replicate B = 1.48; z-score, replicate C = 1.28; call = inactive
BCAS4 | mean z-score = 0.25; z-score, replicate A = 0.47; z-score, replicate B = 0.36; z-score, replicate C = -0.09; call = inactive
KRTAP26-1 | mean z-score = -0.35; z-score, replicate A = -0.44; z-score, replicate B = -0.24; z-score, replicate C = -0.37; call = inactive
NCKAP5L #1 | mean z-score = -1.45; z-score, replicate A = -1.19; z-score, replicate B = -1.4; z-score, replicate C = -1.77; call = inactive
NCKAP5L #2 | mean z-score = 1.01; z-score, replicate A = 0.6; z-score, replicate B = 1.17; z-score, replicate C = 1.27; call = inactive
FGD5 | mean z-score = 0.11; z-score, replicate A = -0.3; z-score, replicate B = 0.18; z-score, replicate C = 0.47; call = inactive
